One substance from patent US20200405836A1 can be followed below.

This test concerns the target trypsin activated wild-type recombinant epsilon toxin (Clostridium perfringens Type D strain NCTC 8346). Description: cell-based or functional assay.

“control sera from lambs which had not been immunised (antibody)”: the Neutralising antibody (IU/ml) measured using CHO-hMal cells amounted to 0 IU/ml.
